Measured values as given in article PMC5006990 (PLoS ONE, 2016).

The chains behind the UniProt entries cited, without tags or fusion partners.
UniProt P9WNX1, whole entry: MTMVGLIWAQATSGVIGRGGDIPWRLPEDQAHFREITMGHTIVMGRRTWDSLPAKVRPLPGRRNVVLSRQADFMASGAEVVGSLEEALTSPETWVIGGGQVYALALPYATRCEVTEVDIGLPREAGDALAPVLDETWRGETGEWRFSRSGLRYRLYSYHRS

Assays:
MtbDHFR = MtbDHFR (Mycobacterium tuberculosis, UniProt P9WNX1); assay: MtbDHFR enzyme inhibition (NADPH oxidation at 340 nm); format: biochemical; conditions: triplicate, mean ± SD; for IC50: read-out: IC50 (nM) MtbDHFR
[1] = test system: M. tuberculosis ATCC 35801 (strain Erdman); assay: Microtiter broth dilution MIC, Mtb Erdman; conditions: Table 1 panel
Mtb 352 = assay: Microtiter broth dilution MIC, MDR strain Mtb 352; format: cell-based, Mycobacterium tuberculosis; conditions: Table 1 panel
Mtb 56 = assay: Microtiter broth dilution MIC, MDR strain Mtb 56; format: cell-based, Mycobacterium tuberculosis; conditions: Table 1 panel
Mtb 276 = assay: Microtiter broth dilution MIC, MDR strain Mtb 276; format: cell-based, Mycobacterium tuberculosis; conditions: Table 1 panel
Mtb 5 = assay: Microtiter broth dilution MIC, XDR strain Mtb 5; format: cell-based, Mycobacterium tuberculosis; conditions: Table 1 panel
Mtb 365 = assay: Microtiter broth dilution MIC, MDR strain Mtb 365; format: cell-based, Mycobacterium tuberculosis; conditions: Table 1 panel
Mtb C-31 = assay: Microtiter broth dilution MIC, MDR strain Mtb C-31; format: cell-based, Mycobacterium tuberculosis; conditions: Table 1 panel

In the case of `CCc1nc(N)nc(N)c1C#CC(C)c1ccc(Nc2ccncc2)cc1OC` (stereo not drawn), the IC50 (MtbDHFR) is reported as 220 nM.

`CCc1nc(N)nc(N)c1C#CC(C)c1ccc(-c2ccncc2)cc1Cl` (stereo not drawn) was tested, and the IC50 (MtbDHFR) was 174 nM.

With `CCc1nc(N)nc(N)c1C#CC(C)c1cc(N2CCNCC2)ccc1OC` (stereo not drawn) the IC50 (MtbDHFR) was 302 nM.

Compound `CCc1nc(N)nc(N)c1C#CC(C)c1cnc(-c2ccccc2)nc1` (stereo not drawn) has an IC50 (MtbDHFR) of 249 nM.

Work on `CCc1nc(N)nc(N)c1C#C[C@H](C)c1cc(-c2cc(C)nc(C)c2)ccc1Cl` yielded an IC50 (MtbDHFR) of 114 nM.

Compound `CCc1nc(N)nc(N)c1C#CC(C)c1cc2c(c(-c3ccnc(Cl)c3)c1)OCO2` (stereo not drawn) has an IC50 (MtbDHFR) of 482 nM.

`CCc1nc(N)nc(N)c1C#CC(C)c1cc2c(c(-c3ccncc3)c1)OCCO2` (stereo not drawn) was tested, and the “MIC (μg/mL) Mtb Erdman” value [1] was 8 µg/mL (≈ 19.9 µM), the “MIC (μg/mL) Mtb 352” value (Mtb 352) was 8 µg/mL (≈ 19.9 µM) and the “MIC (μg/mL) Mtb 56” value (Mtb 56) was 8 µg/mL (≈ 19.9 µM). The “MIC (μg/mL) Mtb 276” value (Mtb 276) was 16 µg/mL (≈ 39.9 µM), the “MIC (μg/mL) Mtb 5” value (Mtb 5) was 16 µg/mL (≈ 39.9 µM) and the “MIC (μg/mL) Mtb 365” value (Mtb 365) was 8 µg/mL (≈ 19.9 µM). The “MIC (μg/mL) Mtb C-31” value (Mtb C-31) was 16 µg/mL (≈ 39.9 µM) and the IC50 (MtbDHFR) was 1800 nM.

Compound `CCc1nc(N)nc(N)c1C#CC(C)c1cc(N2CCOCC2)ccc1OC` (stereo not drawn) has an IC50 (MtbDHFR) of 239 nM.

Compound `CCc1nc(N)nc(N)c1C#C[C@@H](C)c1cc2c(c(-c3ccncc3)c1)OCO2` has an IC50 (MtbDHFR) of 122 nM.

For `CCc1nc(N)nc(N)c1C#CCc1cc(-c2ccccc2C(=O)O)ccc1OC`, the IC50 (MtbDHFR) was 400 nM and the “IC50 (nM) MtbDHFR” value (MtbDHFR) was “poor enzyme inhibition”.

Work on `CCc1nc(N)nc(N)c1C#CC(C)c1cc(OC)c(-c2ccncc2)c(OC)c1` (stereo not drawn) yielded an IC50 (MtbDHFR) of 333 nM.

With `CCc1nc(N)nc(N)c1C#CC(C)c1cc(OC)cc(-c2ccccn2)c1` (stereo not drawn) the “MIC (μg/mL) Mtb Erdman” value [1] was 8 µg/mL (≈ 21.4 µM), the “MIC (μg/mL) Mtb 352” value (Mtb 352) was 8 µg/mL (≈ 21.4 µM) and the “MIC (μg/mL) Mtb 56” value (Mtb 56) was 8 µg/mL (≈ 21.4 µM). The “MIC (μg/mL) Mtb 276” value (Mtb 276) was 16 µg/mL (≈ 42.8 µM), the “MIC (μg/mL) Mtb 5” value (Mtb 5) was 16 µg/mL (≈ 42.8 µM) and the “MIC (μg/mL) Mtb 365” value (Mtb 365) was 8 µg/mL (≈ 21.4 µM). For the same compound, the “MIC (μg/mL) Mtb C-31” value (Mtb C-31) was 32 µg/mL (≈ 85.7 µM) and the IC50 (MtbDHFR) was 302 nM.

For `CCc1nc(N)nc(N)c1C#CCc1ccc(-c2ccncc2)cc1`, the IC50 (MtbDHFR) was 657 nM.

With `CCc1nc(N)nc(N)c1C#CC(C)c1cncc(-c2cncn2C)c1` (stereo not drawn) the IC50 (MtbDHFR) was 582 nM.

`CCc1nc(N)nc(N)c1C#CCc1ccc(-c2ccc(CN)cc2)cc1OC` was tested, and the IC50 (MtbDHFR) was 530 nM.

Work on `CCc1nc(N)nc(N)c1C#CC(C)c1cc(-c2cc[nH]c(=O)c2)ccc1OC` (stereo not drawn) yielded an IC50 (MtbDHFR) of 525 nM.

For `CCc1nc(N)nc(N)c1C#CC(C)c1cc(-c2cnccn2)ccc1OC` (stereo not drawn), the “MIC (μg/mL) Mtb Erdman” value [1] was 8 µg/mL (≈ 21.4 µM), the “MIC (μg/mL) Mtb 352” value (Mtb 352) was 16 µg/mL (≈ 42.7 µM) and the “MIC (μg/mL) Mtb 56” value (Mtb 56) was 8 µg/mL (≈ 21.4 µM). The “MIC (μg/mL) Mtb 276” value (Mtb 276) was 16 µg/mL (≈ 42.7 µM), the “MIC (μg/mL) Mtb 5” value (Mtb 5) was 16 µg/mL (≈ 42.7 µM) and the “MIC (μg/mL) Mtb 365” value (Mtb 365) was 8 µg/mL (≈ 21.4 µM). The “MIC (μg/mL) Mtb C-31” value (Mtb C-31) was 32 µg/mL (≈ 85.5 µM) and the IC50 (MtbDHFR) was 263 nM.

In brackets after ≈: the same amount, converted by molar mass.
